Source: PubChem BioAssay AID624099 (ICCB-Longwood, 2012)

Purpose: 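Host factors E2 relies on to silence an HPV18 LCR reporter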 (primary screen)
System: human C33A cervical carcinoma cells (HPV-negative) stably expressing BPV1 E2 and an HPV18 LCR luciferase reporter
Knock-down reagent: siRNA pool against human genes, 40 nM
Duration: 72 h
Read-out: 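HPV18 LCR reporter light per well, converted to plate-wise z-scores that exclude control wells, and averaged over triplicate plates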
Scale: mean z-score and z-score: higher = stronger reporter signal, weaker E2 silencing
Rule for the call: 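Hit if mean z-score reaches 2 and two or more of three replicate z-scores also reach 2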
The deposit covers about 21,000 reagents; below is a random part of them. 497 of them (2.4%) were called active. 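Higher z means weaker E2 silencing; only reporter increases were scored, and knock-downs that hurt cell survival may mask genuine repressor factors.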 Entries without a mark were called inactive. Reagents against one gene are numbered here. No sequences are given here.

| Gene | reagent | mean z-score | z-score, replicate A | z-score, replicate B | z-score, replicate C |
| --- | --- | --- | --- | --- | --- |
| EIF2B3 | 1 | -0.52 | -0.74 | -0.48 | -0.34 |
| RHOF | 1 | -0.38 | -0.17 | -0.47 | -0.49 |
| TSGA10IP | 1 | -0.63 | -0.54 | -0.87 | -0.48 |
| OR4P4 | 1 | 0.3 | -0.03 | 0.71 | 0.23 |
| FYB1 | 1 | 0.8 | 0.98 | 0.52 | 0.89 |
| ERGIC3 | 1 | -0.14 | -0.64 | 0 | 0.21 |
| ZPR1 | 1 | 0.46 | 0.51 | 0.63 | 0.24 |
| FAM217A | 1 | 0.37 | 0.3 | 0.45 | 0.2 |
| DHTKD1 | 1 | -0.99 | -0.92 | -1.05 | -0.99 |
| CSRP2 | 1 | -0.63 | -0.65 | -0.72 | -0.5 |
| E2F3 | 1 | 0.72 | 0.59 | 0.58 | 0.99 |
| H2AC6 | 1 | 0.67 | 0.83 | 0.65 | 0.54 |
| LY6E | 1 | 0.89 | 1.03 | 0.88 | 0.77 |
| IAPP | 1 | -0.67 | -0.62 | -0.69 | -0.7 |
| MRPS31 | 1 | 0.94 | 1.15 | 0.85 | 0.83 |
| KRTAP10-5 | 1 | 0.34 | 0.33 | 0.11 | 0.58 |
| MTERF1 | 1 | 0.03 | -0.07 | -0.05 | 0.21 |
| NBPF4 | 1 | -0.19 | -0.21 | -0.02 | -0.33 |
| GFRA3 | 1 | -0.63 | -0.61 | -0.81 | -0.47 |
| KLHL5 | 1 | 0.29 | 0.57 | 0.38 | -0.1 |
| IFNA14 | 1 | -1.78 | -1.79 | -1.77 | -1.79 |
| A2M | 1 | -0.19 | 0.05 | -0.2 | -0.43 |
| SNX32 | 1 | -0.2 | -0.43 | -0.48 | 0.3 |
| CLIC5 | 1 | 0.46 | 0.49 | 0.24 | 0.64 |
| TSPEAR-AS2 | 1 | -0.06 | 0.39 | 0.06 | -0.61 |
| IGDCC3 | 1 | 4.64 (active) | 4.32 | 4.58 | 5.01 |
| PNKD | 1 | 0.76 | 0.71 | 0.68 | 0.89 |
| RASSF6 | 1 | 0.93 | 1.31 | 0.87 | 0.61 |
| ZGRF1 | 1 | 0.12 | -0.19 | 0.05 | 0.51 |
| ZGRF1 | 2 | -0.36 | -0.45 | -0.46 | -0.16 |
| PIGF | 1 | 0.18 | 0.1 | 0.28 | 0.17 |
| SHBG | 1 | 0.1 | 0.08 | 0.38 | -0.18 |
| PSTPIP2 | 1 | -0.2 | 0.01 | -0.34 | -0.27 |
| PRKAR2A | 1 | -1.51 | -1.48 | -1.4 | -1.66 |
| MFAP1 | 1 | -2.05 | -2.25 | -1.9 | -2.01 |
| LINC02538 | 1 | -0.34 | -0.23 | -0.33 | -0.47 |
| LINC02538 | 2 | -1.06 | -1.19 | -0.9 | -1.1 |
| MIR1915HG | 1 | -0.74 | -0.78 | -0.97 | -0.49 |
| KDM5C | 1 | 7.83 (active) | 7.41 | 7.99 | 8.09 |
| IDE | 1 | -0.27 | -0.33 | -0.05 | -0.42 |
| CLCNKA | 1 | 0.6 | 0.5 | 0.66 | 0.64 |
| B3GALNT2 | 1 | -0.91 | -1.32 | -0.67 | -0.74 |
| CRTC1 | 1 | 1.49 | 1.67 | 1.18 | 1.61 |
| CMBL | 1 | -0.4 | -0.24 | -0.57 | -0.4 |
| CACNG1 | 1 | 0.36 | 0.74 | 0.4 | -0.04 |
| ASPSCR1 | 1 | -0.73 | -0.9 | -0.63 | -0.67 |
| SST | 1 | -1.28 | -1.22 | -1.31 | -1.31 |
| FGF19 | 1 | -0.67 | -0.89 | -0.53 | -0.59 |
| GJA3 | 1 | 0.12 | 0.19 | 0.34 | -0.16 |
| LOC388361 (retired record) | 1 | -0.04 | -0.37 | 0.17 | 0.07 |
| OTOP1 | 1 | -0.97 | -1.07 | -1.27 | -0.58 |
| SCUBE1 | 1 | 0.38 | 0.68 | 0.37 | 0.1 |
| ZNF577 | 1 | -0.66 | -0.63 | -0.47 | -0.87 |
| UPF1 | 1 | 0.55 | 0.48 | 0.54 | 0.62 |
| COL13A1 | 1 | -1.89 | -1.91 | -2.38 | -1.4 |
| ANGPTL5 | 1 | -0.33 | 0 | -0.56 | -0.44 |
| FMOD | 1 | -1.41 | -0.85 | -1.49 | -1.88 |
